The record followed here is ChEMBL document CHEMBL6177978, “Toward Dual-Target Glycomimetics against Two Bacterial Lectins to Fight Pseudomonas aeruginosa-Burkholderia cenocepacia Infections: A Biophysical Study” (2025).

This assay addresses Fucose-binding lectin PA-IIL (Pseudomonas aeruginosa (strain ATCC 15692 / DSM 22644 / CIP 104116 / JCM14847 / LMG 12228 / 1C / PRS 101 / PAO1), UniProt Q9HYN5). Kind of assay: Binding affinity to Pseudomonas aeruginosa PAO1 LecB expressed in Escherichia coli BL21 (DE3) incubated for 5 hrs by fluorescence polarization assay. For orientation: Polarisation of emitted light reports the rotation of a fluorescent probe.

Turning to `C[C@@H]1O[C@H](CNC(=O)/C=C/c2ccccc2)[C@@H](O)[C@H](O)[C@@H]1O`, the half-maximal inhibitory concentration (IC50) (usually the midpoint of a concentration-inhibition curve) turned out to be 300 nM.

For the compound `C[C@@H]1O[C@H](CNC(=O)c2cccc(CN)c2)[C@@H](O)[C@H](O)[C@@H]1O`, the concentration for half-maximal inhibition (IC50) was determined as 280 nM.

`C[C@@H]1O[C@H](CNC(=O)c2ccc(CN)cc2)[C@@H](O)[C@H](O)[C@@H]1O` returned an IC50 of 170 nM.
